Results of unrelated studies side by side (data: NIAID ChemDB).

Shared fields: target-level tests; organism: HIV-1; target: Reverse transcriptase

Lines come from different laboratories, so protocols vary. Blank or dashed fields: not listed here. ICn is the concentration giving n% inhibition.

structure	strain or isolate	read-out	changes	method	value
O=c1c(O)c(-c2ccc(O)c(O)c2)oc2cc(O)cc(O)c12		Ki		nucleotide incorporation	0.52 µM
COC(=O)c1cc(O)c(O)c(O)c1		IC50		nucleotide incorporation	>1000 µM
Cc1cc(C)cc([C@]23SCCN2C(=O)c2ccccc23)c1	IIIB	IC50	RT-Y181C	ELISA	5.2 µM
O=C(NC1CCN(S(=O)(=O)c2ccccc2)CC1)c1cc(O)c(O)c(O)c1	BH10	IC50		ELISA / nucleotide incorporation	>305.8 µM
CC(=O)OC[C@H]1O[C@@H](Oc2cc3oc(-c4ccccc4)cc(=O)c3c(OCc3ccccc3)c2OCc2ccccc2)[C@H](OC(C)=O)[C@@H](OC(C)=O)[C@@H]1OC(C)=O		IC50		RT activity	>1000 µg/mL
Nc1nc2c(ncn2[C@H]2CC[C@@H](COP(=O)(O)OP(=O)(O)OP(=O)(O)O)O2)c(=O)[nH]1		IC50			0.075 µM
Cc1occc1C(=S)Nc1ccc(Cl)c(/C=N/OC(C)(C)C)c1	IIIB	IC50		RT activity	0.148 µM
O=C(OC[C@H]1O[C@@H](OC(=O)c2cc(O)c(O)c(O)c2)[C@H](O)[C@@H](OC(=O)c2cc(O)c(O)c(O)c2)[C@@H]1OC(=O)c1cc(O)c(O)c(O)c1)c1cc(O)c(O)c(O)c1		IC50		nucleotide incorporation	86 µM
c1ccc(C2SCc3nc4ccccc4n32)cc1		IC50	RT-Y188L		>50 µM
Cc1cn([C@H]2C[C@H](N=[N+]=[N-])[C@@H](CP(=O)(O)OP(=O)(O)NP(=O)(O)O)O2)c(=O)[nH]c1=O		IC50		fluorescence	>10 µM
CCc1c([Se]c2ccccn2)n(COCc2ccccc2)c(=O)[nH]c1=O	RT-WT	IC50		RT activity	0.07 µM
Cc1ccc(C(=O)N2CCC(NC(=O)c3cc(O)c(O)c(O)c3)CC2)cc1	BH10	IC50		ELISA / nucleotide incorporation	>324 µM
Cc1c(C(C)c2c(F)cccc2F)nc(N2CCOCC2)[nH]c1=O	IIIB	IC50	RT-V179D	nucleotide incorporation / radiometric	>20 µM
O=C(Nc1cc(-c2ccc3c(c2)CCCC3)[nH]n1)c1ccc(-c2ccncc2)s1	NL4-3	IC50	WT	RT activity / nucleotide incorporation / luminescence	0.36 µM
C[C@H](Cn1cnc2c(N)ncnc21)OCP(=O)(O)OP(=O)(O)OP(=O)(O)O		IC50		nucleotide incorporation / radiometric	0.38 µM
CCOc1ccccc1N1CCN(C(=O)c2cc3cc4c(cc3[nH]2)OCO4)CC1	IIIB	IC50	RT-P236L		>50 µM
Cc1cn([C@@H]2O[C@H](CO[Si](C)(C)C(C)(C)C)C3(OS(=O)(=O)C=C3N)[C@H]2O[Si](C)(C)C(C)(C)C)c(=O)n(C)c1=O	IIIB	IC50	RT-P225H	RT activity	2.2 µM
O=C(Nc1cc(-c2ccc3c(c2)CCCC3)[nH]n1)c1ncccn1	NL4-3	IC50	K103N	RT activity / nucleotide incorporation / luminescence	0.89 µM
CC(C)CCC[C@@H](C)[C@H]1CC[C@H]2[C@@H]3CC[C@H]4C[C@@H](CCC=C(c5cc(Cl)c(O)c(C(=O)O)c5)c5cc(Cl)c(O)c(C(=O)O)c5)CC[C@]4(C)[C@H]3CC[C@]12C		IC50			0.36 µM
[B-][P@](=O)(OC[C@H]1O[C@@H](n2cc(C)c(=O)[nH]c2=O)C[C@@H]1N=[N+]=[N-])OP(=O)(O)C(F)(F)P(=O)(O)O		Ki		fluorescence	0.0095 µM
O=C1c2ccccc2C2(c3ccccc3)SCCN12	IIIB	IC50		ELISA	1.41 µM
CC(=O)OC[C@H]1O[C@@H](Oc2cc3oc(-c4ccccc4)cc(=O)c3c(OCc3ccccc3)c2OCc2ccccc2)[C@H](OC(C)=O)[C@@H](OC(C)=O)[C@H]1OC(C)=O		IC50		RT activity	>1000 µg/mL
CC1=CC(C2OC(CN3C(=O)CS[C@@H]3C3OC(n4cc(C)c(=O)[nH]c4=O)[C@@H](O)[C@H]3O)[C@@H](O)[C@H]2O)C(=O)NC1=O		IC50		RT activity	10.3 µM
CC[C@@]1(O)C(=O)OCc2c1cc1n(c2=O)Cc2c-1nc1ccccc1c2CO		IC50		RT activity / ELISA	>17 µg/mL
CC1=CC(C2OC(CN3C(=O)CS[C@H]3C3OC(n4cc(C)c(=O)[nH]c4=O)[C@@H](O)[C@H]3O)[C@@H](O)[C@H]2O)C(=O)NC1=O		IC50		RT activity	35.7 µM
CCOCn1c(Cc2ccccc2)c(C(C)C)c(=O)[nH]c1=O	IIIB	IC50		RT activity	0.106 µM
O=c1cc(-c2ccccc2)oc2cc(O[C@H]3O[C@H](CO)[C@@H](O)[C@H](O)[C@@H]3O)c(OCc3ccccc3)c(O)c12		IC50		RT activity	>1000 µg/mL
Cc1cn([C@@H]2O[C@H](CO[Si](C)(C)C(C)(C)C)C3(OS(=O)(=O)C=C3N)[C@H]2O[Si](C)(C)C(C)(C)C)c(=O)n(C)c1=O		IC50			2.6 µM
Cc1cn([C@H]2C=C[C@@H](COP(=O)(O)OP(=O)(O)OP(=O)(O)O)O2)c(=O)[nH]c1=O		IC50		nucleotide incorporation / radiometric	0.06 µM
O=C(/C=C/c1ncccn1)Nc1cc(-c2ccc3c(c2)CCCC3)[nH]n1	NL4-3	IC50	Y181C	RT activity / nucleotide incorporation / luminescence	0.45 µM
CC(C)Nc1cccnc1N1CCN(C(=O)c2cc3cc4c(cc3[nH]2)OCO4)CC1	IIIB	IC50			0.56 µM
Cc1ccc(C(=O)N2CCN(C(=O)c3cc(O)c(O)c(O)c3)CC2)cc1	BH10	IC50		ELISA / nucleotide incorporation	>50 µM
Nc1ncnc2c1ncn2[C@@H]1O[C@H](COP(=O)(O)OP(=O)(O)OP(=O)(O)O)C[C@@H]1F		IC50	RT-A62V V75I F77L F116Y Q151M	nucleotide incorporation	204 µM
O=c1cc(-c2ccc(O)cc2)oc2cc(O[C@@H]3O[C@H](CO)[C@@H](O)[C@H](O)[C@H]3O)cc(O)c12		IC50		nucleotide incorporation	>1000 µM
O=C(c1ccccc1)N1CCN(C(=O)c2cc(O)c(O)c(O)c2)CC1	BH10	IC50		ELISA / nucleotide incorporation	>50 µM
O=c1c(O[C@@H]2O[C@H](CO)[C@H](O)[C@H](O)[C@H]2O)c(-c2ccc(O)c(O)c2)oc2cc(O)cc(O)c12		IC50		nucleotide incorporation	1000 µM
COc1c(OC)c(OC)c(-c2cc(=O)c3c(O)cc(O)cc3o2)c(OC)c1OC		IC50		nucleotide incorporation / radiometric	>200 µg/mL
Cc1c(C(C)c2c(F)cccc2F)nc(N(C)C)[nH]c1=O		Ki	RT-K103N	nucleotide incorporation / radiometric	0.7 µM
COc1ccccc1N1CCN(C(=O)c2cc3cc4c(cc3[nH]2)OCO4)CC1	IIIB	IC50		RT activity	2.5 µM
CCCc1cccnc1N(C)C1CCN(C(=O)c2cc3cc(NS(C)(=O)=O)ccc3[nH]2)CC1	IIIB	IC50		nucleotide incorporation	<1 µM
O=c1cc(-c2ccccc2)oc2cc(O)c(OCc3ccccc3)c(OCc3ccccc3)c12		IC50		RT activity	>1000 µg/mL
Cc1cn([C@H]2C[C@H](N=[N+]=[N-])[C@@H](CP(=O)(O)OP(=O)(O)C(F)(F)P(=O)(O)O)O2)c(=O)[nH]c1=O		IC50		fluorescence	>10 µM
CN(C)c1nc(Cc2c(F)cccc2F)cc(=O)[nH]1	IIIB	IC50	RT-K103N	nucleotide incorporation / radiometric	3 µM
CC(C)OC(=O)OCOP(=O)(CO[C@H](C)Cn1cnc2c(N)ncnc21)OCOC(=O)OC(C)C		IC50		RT activity	0.38 µM
Oc1c(Oc2ccc(Cl)cc2Cl)c(Cl)cc(Cl)c1Oc1ccc(Cl)cc1Cl		IC50			91 µM
O=c1c(O[C@@H]2OC[C@H](O)[C@H](O)[C@H]2O)c(-c2ccc(O)c(O)c2)oc2cc(O)cc(O)c12		IC50		nucleotide incorporation	>1000 µM
CC[C@H]1OC(=O)[C@H](C)[C@@H](O[C@H]2C[C@@](C)(OC)[C@@H](O)[C@H](C)O2)[C@H](C)[C@@H](O[C@@H]2O[C@H](C)C[C@H](N(C)C)[C@H]2O)[C@](C)(O)C[C@@H](C)/C(=N\OC)[C@H](C)[C@@H](O)[C@]1(C)O		IC50			<160 µM
CCOc1ccc(N2CC(O)Cn3c2nc2c3c(=O)n(CC(N)=O)c(=O)n2C)cc1		IC50		RT activity / RNase H / absorbance	>100 µM
CCNc1cccnc1N1CCN(C(=O)c2cc3cc4c(cc3[nH]2)OCO4)CC1	IIIB	IC50		RT activity	0.44 µM
O=C(Nc1nnc(-c2ccc3c(c2)CCCC3)o1)C1=COCCO1	NL4-3	IC50	WT	RT activity / nucleotide incorporation / luminescence	8.5 µM
CCc1c([Se]c2ccccc2)n(COCc2ccccc2)c(=O)[nH]c1=O	RT-WT	IC50		RT activity	0.1 µM
CSCSc1nc(Cc2cc(C)cc(C)c2)c(C(C)C)c(=O)[nH]1	IIIB	Ki			0.06 µM
O=C(Nc1cc(-c2ccc3c(c2)CCCC3)[nH]n1)c1cccs1	NL4-3	IC50	K103N	RT activity / nucleotide incorporation / luminescence	0.55 µM
COc1cc2c(ccc3c4cc(OC)c(OC)cc4c[n+](C)c23)cc1O		IC50		nucleotide incorporation / radiometric	10.9 µg/mL
COc1ccc2c(c1)N(C(=O)OC(C)C)[C@@H](CSC)C(=S)N2	IIIB	IC50		RT activity	0.012 µM
C=C(CC[C@@H](C)[C@H]1CC[C@@]2(C)[C@@H]3CC[C@H]4[C@](C)(C(=O)O)[C@@H](O)CC[C@@]45C[C@@]35CC[C@]12C)C(C)C		IC50		nucleotide incorporation / radiometric	43.5 µg/mL
CC1=CC(C2O[C@H](CO)C(N3C(=O)CS[C@@H]3C3OC(n4cc(C)c(=O)[nH]c4=O)[C@@H](O)[C@H]3O)[C@H]2O)C(=O)NC1=O		IC50		RT activity	6.5 µM

The last 8 rows once more:

structure,strain or isolate,read-out,changes,method,value
O=C(Nc1nnc(-c2ccc3c(c2)CCCC3)o1)C1=COCCO1,NL4-3,IC50,WT,RT activity / nucleotide incorporation / luminescence,8.5 µM
CCc1c([Se]c2ccccc2)n(COCc2ccccc2)c(=O)[nH]c1=O,RT-WT,IC50,,RT activity,0.1 µM
CSCSc1nc(Cc2cc(C)cc(C)c2)c(C(C)C)c(=O)[nH]1,IIIB,Ki,,,0.06 µM
O=C(Nc1cc(-c2ccc3c(c2)CCCC3)[nH]n1)c1cccs1,NL4-3,IC50,K103N,RT activity / nucleotide incorporation / luminescence,0.55 µM
COc1cc2c(ccc3c4cc(OC)c(OC)cc4c[n+](C)c23)cc1O,,IC50,,nucleotide incorporation / radiometric,10.9 µg/mL
COc1ccc2c(c1)N(C(=O)OC(C)C)[C@@H](CSC)C(=S)N2,IIIB,IC50,,RT activity,0.012 µM
C=C(CC[C@@H](C)[C@H]1CC[C@@]2(C)[C@@H]3CC[C@H]4[C@](C)(C(=O)O)[C@@H](O)CC[C@@]45C[C@@]35CC[C@]12C)C(C)C,,IC50,,nucleotide incorporation / radiometric,43.5 µg/mL
CC1=CC(C2O[C@H](CO)C(N3C(=O)CS[C@@H]3C3OC(n4cc(C)c(=O)[nH]c4=O)[C@@H](O)[C@H]3O)[C@H]2O)C(=O)NC1=O,,IC50,,RT activity,6.5 µM